Compound potency records, mixed from different reports. Data source: NIAID ChemDB in PubChem.

All rows: tests in culture; species: HIV-1; cell line: PBMC; endpoint: EC50

Lines come from different laboratories, so protocols vary. ECn: concentration that inhibits the pathogen or its effect by n%. a–b is a range or a potency band. An empty or dashed field is not shown.

SMILES,strain,changes,read by,setting,value
CC(C)(C)NC(=O)[C@@H]1C[C@@H]2CCCC[C@@H]2CN1C[C@@H](O)[C@H](Cc1ccccc1)NC(=O)[C@H](CC(N)=O)NC(=O)c1ccc2ccccc2n1,Clinical isolate,L10I K43T M46L I54V L63P A71V V82A L90M Q92K,,,0.11 µM
COc1ccc(C[C@H](NC(=O)c2cccc(O)c2C)[C@H](O)C(=O)N2CSC(C)(C)[C@H]2C(=O)NCc2ccccc2C)cc1,052-52 PI-resistant,PR-L10R M46I L63P A71V V82T I84V,RT activity,,0.033 µM
C=CCN(C(=O)OCc1ccccc1)C1CCN(CC[C@H](CN(C)S(=O)(=O)c2ccccc2)c2ccccc2)CC1,YU2,,p24,,<0.8 µM
Cc1cccc(C)c1OCC(=O)N[C@@H](Cc1ccccc1)[C@@H](O)C[C@H](Cc1ccccc1)NC(=O)[C@H](C(C)C)N1CCCNC1=O,052-52 PI-resistant,PR-L10R M46I L63P A71V V82T I84V,RT activity,,0.685 µM
CC(=O)N1CCC(C(=O)N(CCCN2CCC(Cc3ccc(C(N)=O)cc3)CC2)c2ccc(C)c(Cl)c2)CC1,HNK R5 clinical isolate,,p24,,0.0017 µM
COC(=O)[C@H](C)NP(=O)(OC[C@@H]1C=C[C@H](n2cc(C)c(=O)[nH]c2=O)O1)Oc1ccc(Br)cc1,X267-5 NRTI resistant,RT-M41L F116S T215Y,p24,,0.03 µM
CCN(C(=O)OCc1ccccc1)C1CCN(CC[C@H](CN(C)S(=O)(=O)c2ccccc2)c2cccc(Cl)c2)CC1,YU2,,p24,,<13 µM
Cc1c(O)cccc1C(=O)N[C@@H](CSc1ccccc1)[C@H](O)CN1C[C@H]2CCCC[C@H]2C[C@H]1C(=O)NC(C)(C)C,1002-60 PI-resistant,PR-L10I M46I I54V L63P V82F L90M,RT activity,,1.235 µM
O=C1N(Cc2ccc(CO)cc2)[C@H](Cc2ccccc2)[C@H](O)[C@@H](O)[C@@H](Cc2ccccc2)N1Cc1ccc(CO)cc1,HXB2,,p24,,0.018 µM
CC(C)CN(C[C@@H](O)[C@H](Cc1ccccc1)NC(=O)O[C@H]1CO[C@H]2OCC(F)(F)[C@H]21)S(=O)(=O)c1ccc(N)cc1,ERS104pre,L63P,,,0.0027 µM
CC(C)CN(C[C@@H](O)[C@H](Cc1ccccc1)NC(=O)O[C@H]1CCOC1)S(=O)(=O)c1ccc(N)cc1,LAI Laboratory isolate,,p24,,0.017 µM
CC(C)(C)NC(=O)[C@@H]1CN(Cc2cccnc2)CCN1C[C@@H](O)C[C@@H](Cc1ccccc1)C(=O)N[C@H]1c2ccccc2C[C@H]1O,ESP2-0,,p24,,0.0151 µM
COc1ccc(S(=O)(=O)N(CC(C)C)C[C@@H](O)[C@H](Cc2ccccc2)NC(=O)O[C@H]2CO[C@H]3OCC(F)(F)[C@H]32)cc1,Clinical isolate,L10I I15V K20R L24I M36I M46L I54V I62V L63P K70Q V82A L89M,,"clinical isolate, multidrug-resistant",0.002 µM
Cc1cn([C@H]2C[C@H](F)[C@@H](CO)O2)c(=O)[nH]c1=O,720,,ELISA,,0.004 µM
Cc1cn([C@H]2C[C@H](N=[N+]=[N-])[C@@H](CO)O2)c(=O)[nH]c1=O,RF,,p24,,0.001 µM
CCO/N=C(\c1ccc(Br)cc1)C1CCN(C2(C)CCN(C(=O)c3c(C)cc[n+]([O-])c3C)CC2)CC1,R5-01 R5 clinical isolate,,p24,,0.0147 µM
Cc1ccccc1CNC(=O)[C@H]1N(C(=O)[C@@H](O)[C@H](Cc2ccccc2)NC(=O)c2cccc(O)c2C)CSC1(C)C,052-52 PI-resistant,PR-L10R M46I L63P A71V V82T I84V,RT activity,,0.017 µM
Nc1nc(=O)n([C@@H]2CC[C@H](CO)O2)cc1Cl,LAV,,RT activity,,>100 µM
C[C@H]1/C=C/[C@@]2(C)CC[C@@H](C(C)(C)O)[C@@H]2[C@@H](O)C[C@](C)(O)/C=C/C1,BAL R5,,p24,,8.4 µM
CC(C)n1nc(-c2ccc3oc(N)nc3c2)c2c(N)ncnc21,92BR020,,p24 / ELISA,,0.00103 µM
Cc1cn([C@H]2C[C@H](N=[N+]=[N-])[C@@H](CO)O2)c(=O)[nH]c1=O,BaL,,,,0.009 µM
Cc1ccnc2c1NC(=O)c1cccnc1N2C1CC1,Subtype B isolate,,RT activity,,0.04 µM
Cc1cc(C)c(Nc2ccnc(Nc3ccc(C#N)cc3)n2)c(C)c1,1617-1,,absorbance,,0.0034 µM
CCN(C(=O)OCc1ccccc1)C1CCN(CCC(CN(C)S(=O)(=O)c2ccccc2)c2ccccc2)CC1,YU2,,p24,,<13 µM
Nc1nc(=O)n([C@@H]2CS[C@H](CO)O2)cc1F,2:DR1 AZT-resistant,,RT activity,,0.08 µM
Cc1c(N)nc([C@H](CC(N)=O)NC[C@H](N)C(N)=O)nc1C(=O)N[C@H](C(=O)N[C@H](C)[C@@H](O)[C@H](C)C(=O)N[C@H](C(=O)NCCc1nc(-c2nc(C(=O)NCCC[S+](C)C)cs2)cs1)[C@@H](C)O)C(O[C@@H]1O[C@@H](CO)[C@@H](O)[C@H](O)[C@@H]1O[C@H]1O[C@H](CO)[C@@H](O)[C@H](OC(N)=O)[C@@H]1O)c1cnc[nH]1,BaL,,p24,,>0.7 µM
O=Nc1c(-c2c(O)[nH]c3ccccc23)[nH]c2ccccc12,ADA R5,,RT activity,,0.5 µM
CC(C)(C)NC(=O)[C@@H]1CN(Cc2cccnc2)CCN1C[C@@H](O)C[C@@H](Cc1ccccc1)C(=O)N[C@H]1c2ccccc2C[C@H]1O,Clinical isolate,PR-L10I K43T M46L I54L L63P A71T V82A L90M Q92K,p24,,>1 µM
Cc1ccnc2c1NC(=O)c1cccnc1N2C1CC1,BCF03,RT-A98G Y181C,,,41 µM
Nc1nccc2c1ncn2[C@@H]1C[C@H](CO)[C@@H](O)[C@H]1O,A012 POST-AZT,,,,0.365 µM
O=C(Nc1cc(S(=O)(=O)O)cc2cc(S(=O)(=O)O)c(N=Nc3ccc(N=Nc4c(S(=O)(=O)O)cc5cc(S(=O)(=O)O)cc(NC(=O)c6cccc(Cl)c6Cl)c5c4O)cc3)c(O)c12)c1ccc(Cl)cc1Cl,A018A,,,,1.26–1.58 µg/mL
Cc1cn([C@@H]2C[C@@H](F)[C@H](CO)O2)c(=O)[nH]c1=O,LAV,,RT activity,,>100 µM
Cc1cn([C@H]2C[C@H](N=[N+]=[N-])[C@@H](CO)O2)c(=O)[nH]c1=O,NL4-3 WT,,p24,,0.001 µM
Nc1ccn([C@H]2CC[C@@H](CO)O2)c(=O)n1,BCF06,RT-A98G K103R,,,0.16 µM
CCO/N=C(\c1ccc(Br)cc1)C1CCN(C2(C)CCN(C(=O)c3c(C)cc[n+]([O-])c3C)CC2)CC1,RU570 R5 CLADE G,,p24,,0.018 µM
Cc1cn([C@H]2C=C[C@@H](CO)O2)c(=O)[nH]c1=O,NL4-3 WT,,p24,,0.04 µM
C=CCN(C(=O)Cc1ccc([N+](=O)[O-])cc1)C1CCN(CCC(CN(C)S(=O)(=O)c2ccccc2)c2ccccc2)CC1,YU2,,p24,,<0.05 µM
CC(C)c1cc2c(c(O)c1O)[C@@]1(C(=O)O)CCCC(C)(C)C1CC2,clinical isolate 1(MOKW WT R5),,,,0.018 µM
Cc1cn([C@H]2C[C@H](N=[N+]=[N-])[C@@H](CO)O2)c(=O)[nH]c1=O,,,single cycle / fluorescence,,0.00642 µM
CCN(C(=O)NC)C1CCN(CCC(CN(C)S(=O)(=O)c2ccccc2)c2ccccc2)CC1,YU2,,p24,,<0.12 µM
CCC(=O)c1ccc(F)c([C@@H]2C[C@@H]2NC(=O)Nc2ccc(C#N)cn2)c1O,92BR014,,absorbance,,0.0007 µM
Nc1ccn([C@H]2CC[C@@H](CO)O2)c(=O)n1,RF,,p24,,0.01 µM
Cc1cn([C@H]2C[C@H](N=[N+]=[N-])[C@@H](CO)O2)c(=O)[nH]c1=O,M6 (AZT-resistant),,RT activity,,13.9 µM
Cc1c(O)cccc1C(=O)N[C@@H](CSc1ccccc1)[C@H](O)CN1C[C@H]2CCCC[C@H]2C[C@H]1C(=O)NC(C)(C)C,Ba-L Laboratory isolate,,p24,,0.003 µM
CC(C)OC(=O)OCOP(=O)(CO[C@H](C)Cn1cnc2c(N)ncnc21)OCOC(=O)OC(C)C,62J,,p24,,<0.005 µM
CC(C)CN(C[C@@H](O)[C@H](Cc1ccccc1)NC(=O)O[C@H]1CCOC1)S(=O)(=O)c1ccc(N)cc1,IIIB,,RT activity,,0.026 µM
c1cc(CN2CCCNCCNCCCNCC2)ccc1CN1CCCNCCNCCCNCC1,NL4-3 X4 laboratory isolate,,p24,,0.022 µM
Nc1ccn([C@@H]2CS[C@H](CO)O2)c(=O)n1,Ba-L Laboratory isolate,,p24,,0.054 µM
CC(C)[C@H](NC(=O)c1ccc2ccccc2n1)C(=O)N[C@@H](Cc1ccccc1)[C@H](O)CN1CC[C@@H](OCc2ccncc2)C[C@H]1C(=O)NC(C)(C)C,Wg3522,,p24 / ELISA / antigen,,0.015 µM
Cc1cn([C@@H]2C[C@@H](N)[C@H](CO)O2)c(=O)[nH]c1=O,LAV,,RT activity,,>10 µM
CC(C)Nc1cccnc1N1CCN(C(=O)c2cc3cc(NS(C)(=O)=O)ccc3[nH]2)CC1,Subtype B isolate,,RT activity,,0.02 µM
C=CCN(C(=O)OCc1ccc([N+](=O)[O-])cc1)C1CCN(CCC(CN(C)S(=O)(=O)c2ccccc2)c2ccccc2)CC1,YU2,,p24,,<0.2 µM
CC(C)(C)NC(=O)[C@@H]1CN(Cc2cccnc2)CCN1C[C@@H](O)C[C@@H](Cc1ccccc1)C(=O)N[C@H]1c2ccccc2C[C@H]1O,7324-1 NRTI resistant recombinant,RT-M41L D67N T69N K70R T215F K219E,RT activity,,0.0057 µM
Nc1nc(=O)n([C@@H]2C[C@@H](O)[C@H](CO)O2)cc1F,LAV,,RT activity,,>100 µM

6 of the rows above, restated:

SMILES,strain,changes,read by,setting,value
c1cc(CN2CCCNCCNCCCNCC2)ccc1CN1CCCNCCNCCCNCC1,NL4-3 X4 laboratory isolate,,p24,,0.022 µM
CC(C)c1cc2c(c(O)c1O)[C@@]1(C(=O)O)CCCC(C)(C)C1CC2,clinical isolate 1(MOKW WT R5),,,,0.018 µM
Cc1cn([C@H]2C[C@H](N=[N+]=[N-])[C@@H](CO)O2)c(=O)[nH]c1=O,NL4-3 WT,,p24,,0.001 µM
Nc1nccc2c1ncn2[C@@H]1C[C@H](CO)[C@@H](O)[C@H]1O,A012 POST-AZT,,,,0.365 µM
Cc1cn([C@H]2C[C@H](N=[N+]=[N-])[C@@H](CO)O2)c(=O)[nH]c1=O,,,single cycle / fluorescence,,0.00642 µM
CCN(C(=O)OCc1ccccc1)C1CCN(CC[C@H](CN(C)S(=O)(=O)c2ccccc2)c2cccc(Cl)c2)CC1,YU2,,p24,,<13 µM